The assay concerns the target T1, IsdA-N1 (NEAT domain of IsdA), apo form (S. aureus, UniProt Q7A655 62-184).
T1 sequence (looked up): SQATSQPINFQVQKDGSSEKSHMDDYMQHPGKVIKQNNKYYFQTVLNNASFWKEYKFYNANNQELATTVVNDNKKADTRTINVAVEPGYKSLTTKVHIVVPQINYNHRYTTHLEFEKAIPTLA
Nature of the assay: stopped-flow spectroscopy of heme transfer.

This note sets out measurements from PMC3114464 (Biochemistry, 2011).

B1: IsdB-N2 M362L variant (domain or fragment)
chain: not shown
What is called Kd is a measure of binding affinity in units of concentration. Regarding B1, the Kd stood at 16.5 µM.
